Source: patent US9127303B2, “Method for detection of beta-D-glucuronidase activity in a sample” (Biosynth AG, priority 2011, dated 2015)

Assay: Broth in test tubes, sterile control (substrate without inoculum)
Details: NB, TBB, 0.1 mM, 37° C., 16 hours

O=C([O-])C1OC(Oc2ccc3nc4ccc(=O)cc-4oc3c2)C(O)C(O)C1O.[Na+] [Resorufin-beta-D-glucuronic acid, reference compound]
Result, colour scored visually: Negative
